Measured values from paper PMC9837764 (Nature Communications, 2023).

System: SARS-CoV-2
Assay: Yield-reduction assay, SARS-CoV-2 in Calu-3 cells (titers as PFU/mL in Vero cells)
Settings: Selectivity index = CC50/EC50

Compound	SI (Two treatments)	SI (One treatment)
OC[C@H]1O[C@@H](n2cnc3c(NCc4ccco4)ncnc32)[C@H](O)[C@@H]1O [MB-801, Kinetin riboside]	26,500	
CC(C)C(=O)OC[C@H]1O[C@@H](n2ccc(NO)nc2=O)[C@H](O)[C@@H]1O [MK-4482, molnupiravir, reference compound]	2,900	80
